The assay deals with MgCA (Malassezia globosa, UniProt A8Q1N3). As to the kind of experiment: stopped-flow CO2 hydration assay, Cheng-Prusoff. It counts as biochemical. The following applies: read-out: KI^a / MgCA; pH 8.3, 10-20 mM TRIS, 20 mM NaBF4, 15 min preincubation at room temperature; tested form: Na salt.

Sequences of proteins named here, by UniProt entry; tags and fusion partners are left off. Residues count along the entry.
UniProt A8Q1N3, 1-241: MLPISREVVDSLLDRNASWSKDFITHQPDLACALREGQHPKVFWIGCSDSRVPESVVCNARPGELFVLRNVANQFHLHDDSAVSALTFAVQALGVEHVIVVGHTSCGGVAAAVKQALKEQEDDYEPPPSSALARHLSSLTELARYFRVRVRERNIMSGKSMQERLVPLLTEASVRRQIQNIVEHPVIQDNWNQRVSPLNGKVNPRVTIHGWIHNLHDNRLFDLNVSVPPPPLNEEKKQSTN

On to `COc1ccc(CCNC(=O)S)cc1OC`, for which the Ki is 14.1 µM.

Take `CN1CCN(NC(=O)S)CC1`: the Ki came out at 7.81 µM.

These data come from publication PMC6010091, “Inhibition of the β-carbonic anhydrase from the dandruff-producing fungus Malassezia globosa with monothiocarbamates” (Journal of Enzyme Inhibition and Medicinal Chemistry, 2017).
